## Positions that govern dimerization of the HIV-1 5' RNA

Sequence of the HIV-1 NL4-3 5' RNA, positions 1 to 437, as numbered in the source:
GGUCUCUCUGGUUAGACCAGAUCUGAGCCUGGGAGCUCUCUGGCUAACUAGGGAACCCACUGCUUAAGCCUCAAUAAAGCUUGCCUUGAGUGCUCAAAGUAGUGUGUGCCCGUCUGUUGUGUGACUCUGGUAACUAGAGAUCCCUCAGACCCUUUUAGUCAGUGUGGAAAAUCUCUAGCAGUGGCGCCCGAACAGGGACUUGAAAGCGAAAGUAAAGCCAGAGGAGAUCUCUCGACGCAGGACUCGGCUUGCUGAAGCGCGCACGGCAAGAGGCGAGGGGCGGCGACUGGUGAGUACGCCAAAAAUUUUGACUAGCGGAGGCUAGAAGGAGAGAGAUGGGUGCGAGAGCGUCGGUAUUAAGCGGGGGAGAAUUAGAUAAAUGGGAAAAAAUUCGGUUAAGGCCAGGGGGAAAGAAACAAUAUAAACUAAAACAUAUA

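Mutant RNA libraries with 1G, 2G or 3G starts, with or without cap, were folded at 37 °C for 30 min. High salt was 300 mM KCl and 5 mM MgCl2, low salt 40 mM KCl and 0.1 mM MgCl2; monomer and dimer were parted on a native gel. Kdimer compares mutation frequencies in monomer and dimer, corrected for sequencing errors.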

Scale: median log2 Kdimer over the changes at a position; positive = changes inhibit dimerization, negative = changes enhance it. One numbering serves 1G, 2G and 3G. A position is written with its base.

position,1G uncapped high-salt,1G uncapped low-salt,2G capped high-salt,2G capped low-salt
U81,0.01,0.19,0.03,0.27
U82,0.13,-0.06,0.05,0.26
G83,-0.11,-0.25,-0.11,-0.08
C84,-0.14,-0.25,-0.35,-0.29
C85,-0.30,-0.18,-0.40,-0.45
U86,0.16,0.16,0.02,0.05
U87,0.18,0.39,0.06,0.15
G88,0.10,-0.14,0.14,-0.06
A89,0.28,0.42,0.04,0.38
G90,0.12,-0.29,-0.08,-0.34
U91,0.14,-0.02,0.02,-0.22
G92,0.49,0.41,0.71,0.55
C93,0.30,-0.13,0.09,-0.10
U94,0.10,0.41,-0.09,0.41
C95,-0.02,0.10,0.13,-0.19
A96,0.07,0.01,-0.10,-0.18
A97,0.22,0.15,0.01,0.17
A98,0.08,0.08,0.21,-0.05
G99,0.17,0.09,-0.08,-0.03
U100,0.08,0.11,0.04,0.11
A101,0.73,0.62,0.43,0.35
G102,0.29,0.01,-0.09,-0.22
U103,0.12,0.18,-0.07,0.24
G104,0.25,-0.03,-0.15,0.71
U105,0.09,0.12,-0.24,0.12
G106,0.07,0.45,-0.24,0.10
U107,0.19,0.61,0.14,0.49
G108,0.07,-0.14,-0.35,-0.56
C109,-0.16,0.74,0.09,0.39
C110,0.16,0.72,0.10,0.46
C111,-0.12,0.93,-0.09,0.40
G112,0.04,0.29,0.01,-0.12
U113,-0.04,0.19,-0.23,0.11
C114,-0.16,0.37,-0.01,0.14
U115,-0.04,0.26,-0.05,0.34
G116,0.29,-0.33,0.42,-0.28
U117,-0.02,-0.15,-0.23,-0.19
U118,0.19,-0.09,-0.05,-0.06
G119,-0.08,-0.43,0.02,-0.30
U120,0.17,0.21,0.12,0.26
G121,-0.07,-0.51,-0.12,-0.60
U122,0.14,0.50,0.05,0.43
G123,0.08,0.14,-0.19,0.17
A124,0.23,0.26,0.12,0.21
C125,0.20,0.49,-0.02,0.41
U126,0.19,0.31,0.03,0.05
C127,0.32,0.38,0.03,0.38
U128,0.44,0.44,0.23,0.50
G129,0.46,0.74,0.20,0.87
G130,0.24,0.19,0.32,0.40

The last 2 entries again:

position	1G uncapped high-salt	1G uncapped low-salt	2G capped high-salt	2G capped low-salt
G129	0.46	0.74	0.20	0.87
G130	0.24	0.19	0.32	0.40

Reference: Ye et al. 2022, doi:10.1038/s41594-022-00746-2.